Record: PubChem BioAssay AID624099 (ICCB-Longwood, 2012)
Screen: 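Knock-downs relieving repression by E2 of an HPV18 LCR luciferase reporter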 (primary screen). System: human C33A cervical carcinoma cells (HPV-negative) stably expressing BPV1 E2 and an HPV18 LCR luciferase reporter. Reagents: siRNA pool against human genes, 40 nM. Time to read-out: 72 h. Measured: 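HPV18 LCR reporter light per well, converted to plate-wise z-scores that exclude control wells, and averaged over triplicate plates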. Direction: mean z-score and z-score: higher = stronger reporter signal, weaker E2 silencing. Active means: 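Mean z ≥ 2 together with z ≥ 2 in two or more of the three replicates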.
Here is an unselected part of about 21,000 reagents. Over the whole deposit, 497 (2.4%) got an active call. 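Higher z means weaker E2 silencing; only reporter increases were scored, and knock-downs that hurt cell survival may mask genuine repressor factors.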 Reagent sequences are not shown.

LOC730011 (retired record) | mean z-score = -4.17; z-score, replicate A = -3.96; z-score, replicate B = -4.27; z-score, replicate C = -4.29; Outcome = inactive
FAF1 | mean z-score = -0.64; z-score, replicate A = -0.87; z-score, replicate B = -0.52; z-score, replicate C = -0.55; Outcome = inactive
PRAMEF13 | mean z-score = 1.33; z-score, replicate A = 1.65; z-score, replicate B = 0.95; z-score, replicate C = 1.37; Outcome = inactive
THAP11 | mean z-score = 0.7; z-score, replicate A = 0.98; z-score, replicate B = 0.54; z-score, replicate C = 0.59; Outcome = inactive
AMDHD2 | mean z-score = -0.35; z-score, replicate A = -0.54; z-score, replicate B = -0.43; z-score, replicate C = -0.07; Outcome = inactive
GPR50 | mean z-score = 2.01; z-score, replicate A = 2.25; z-score, replicate B = 1.8; z-score, replicate C = 1.97; Outcome = inactive
SLC19A3 | mean z-score = 0.09; z-score, replicate A = 0.05; z-score, replicate B = 0; z-score, replicate C = 0.22; Outcome = inactive
P2RY11 | mean z-score = 0.59; z-score, replicate A = 0.39; z-score, replicate B = 0.69; z-score, replicate C = 0.69; Outcome = inactive
CTSL | mean z-score = 0.3; z-score, replicate A = 0.17; z-score, replicate B = 0.22; z-score, replicate C = 0.52; Outcome = inactive
LILRA4 | mean z-score = 0.6; z-score, replicate A = 0.49; z-score, replicate B = 0.6; z-score, replicate C = 0.71; Outcome = inactive
GSK3A | mean z-score = -2.87; z-score, replicate A = -2.74; z-score, replicate B = -2.73; z-score, replicate C = -3.14; Outcome = inactive
BLZF1 | mean z-score = -0.63; z-score, replicate A = -0.51; z-score, replicate B = -0.63; z-score, replicate C = -0.74; Outcome = inactive

2 entries from above, showing only “z-score, replicate C”.
THAP11	0.59
AMDHD2	-0.07
